Measured values from several laboratories, pooled; numbers as filed in NIAID ChemDB.

All rows: growth or infection tests; species: Mycobacterium tuberculosis

MIC bound: limit read from a one-dose screen.

structure,measure,method,cell line,changes,dose,strain or isolate,result
CN(C)c1ccc(/C=C/C(=O)n2c(=O)c(=O)[nH]c3ccccc32)cc1,MIC,resazurin,,,,H37Rv,16.4 µg/mL
COC(CC(C)(O)C#CCC(C)(O)/C=C/C1=C(C)CCCC1(C)C)OC,inhibition,,,,6.25 µg/mL,H37Rv,11%
CCOC(=O)C1=C(C)NC(C)=C(C(=O)OCC)C1c1cn(-c2ccccc2)nc1-c1ccc(Cl)cc1,inhibition,resazurin,,,6.25 µg/mL,H37Rv,70%
CO[C@H]1/C=C/O[C@@]2(C)Oc3c(C)c(O)c4c(O)c(c(N(NC5CC5)NC5CC5)c(O)c4c3C2=O)NC(=O)/C(C)=C\C=C\[C@H](C)[C@H](O)[C@@H](C)[C@@H](O)[C@@H](C)[C@H](OC(C)=O)[C@@H]1C,MIC,,,,,M. bovis Ravenel,0.001 µg/mL
Oc1cc(Cl)ccc1Oc1ccc(Cl)cc1Cl,MIC,,,,,M305,20 µM
S=C(S)Nc1ccc(Cl)cc1,MIC,,,,,PAS-R,12.5 µg/mL
Cc1ccc(NC(=S)N=Nc2c(O)n(CN3CCOCC3)c3ccc(OC(F)(F)F)cc23)cc1,EC50,broth dilution / resazurin,,,,H37Rv,1.373 µg/mL
CN1c2ccc(C=O)cc2Sc2cc(C=O)ccc21,MIC,,,,,H37Rv,6.25 µg/mL
CCNC(=S)N=Nc1c(O)n(C)c2ccc(C)cc12,EC50,broth dilution / resazurin,,,,H37Rv,>100 µg/mL
COC(=O)c1c(C(=O)OC)c2ccc3c4ncccc4ccc3n2c1C(=O)c1ccc(C)cc1,EC90,reporter gene / fluorescence,,,,H37Rv,>200 µM
N#C/C(=C/c1ccccc1Cl)n1nnc2ccccc21,MIC90,,,,,ATCC 27294,28.9 µM
CC1=NN(c2cccc(S(=O)(=O)O)c2)C(=O)C1,inhibition,resazurin,,,6.25 µg/mL,H37Rv,-6%
CCOC(=O)C1=C(C)NC(C)=C(C(=O)OCC)C1c1cn(-c2ccccc2)nc1-c1ccc(Br)cc1,inhibition,resazurin,VERO,,6.25 µg/mL,H37Rv,100%
Cc1ccc2c(c1)c(N=NC(=S)Nc1ccc(Br)cc1)c(O)n2C,EC90,broth dilution / resazurin,,,,H37Rv,>100 µg/mL
COC(=O)C1=C(C)NC(C)=C(C(=O)OC)C1c1cn(-c2ccccc2)nc1-c1ccc(F)cc1,inhibition,resazurin,,,6.25 µg/mL,H37Rv,71%
O=S1(=O)OC(c2ccc(O)c(O)c2)(c2ccc(O)c(O)c2)c2ccccc21,inhibition,BACTEC,,,12.5 µg/mL,H37Rv,0%
O=C(Cc1ccccc1)N[C@@H]1C(=O)N2C(C(=O)O)=C(CN(O)C(=O)c3ccccc3)CSC12,MIC,,,,,H37Rv,63.7 µM
CO[C@H]1/C=C/O[C@@]2(C)Oc3c(C)c(O)c4c(O)c(c(N(NC5CCCCC5)NC5CCCCC5)c(O)c4c3C2=O)NC(=O)/C(C)=C\C=C\[C@H](C)[C@H](O)[C@@H](C)[C@@H](O)[C@@H](C)[C@H](OC(C)=O)[C@@H]1C,MIC,,,,,M. bovis Ravenel,0.01 µg/mL
N#C/C(=C\c1cccc(F)c1F)n1nnc2ccccc21,MIC50,,,,,ATCC 27294,52.4 µM
S=C(S)NCCCNC(=S)S,inhibition,resazurin,,,6.25 µg/mL,H37Rv,97%
CC1COc2c(N3CCN(C)CC3)c(F)cc3c(=O)c(C(=O)O)cn1c23,MIC90,,,,,25 strains,0.78 µg/mL
O=C(Cc1ccccc1)N[C@@H]1C(=O)N2C(C(=O)O)=C(CN(O)C(=O)c3ccc(C(F)(F)F)cc3)CSC12,MIC,,,,,H37Rv,86 µM
CCOC(=O)C1=C(C)NC(C)=C(C(=O)OCC)C1c1cn(-c2ccccc2)nc1-c1ccc(F)cc1,inhibition,resazurin,VERO,,6.25 µg/mL,H37Rv,100%
N#C/C(=C/c1ccccc1I)n1nnc2ccccc21,MIC90,,,,,ATCC 27294,28.2 µM
CC[C@H]1OC(=O)[C@H](C)[C@@H](O[C@H]2C[C@@](C)(OC)[C@@H](O)[C@H](C)O2)[C@H](C)[C@@H](O[C@@H]2O[C@H](C)C[C@H](N(C)C)[C@H]2O)[C@](C)(OC)C[C@@H](C)C(=O)[C@H](C)[C@@H](O)[C@]1(C)O,MBC,,,,,Kurono,>128 µg/mL
COC(=O)C1=C(C)NC(C)=C(C(=O)OC)C1c1cn(-c2ccccc2)nc1-c1ccc(Br)cc1,inhibition,resazurin,,,6.25 µg/mL,H37Rv,40%
CO[C@@H]1[C@H](O)[C@@H](C)O[C@@H](OC[C@H](C)[C@H]2OC(=O)[C@H](C)[C@@H](O[C@H]3C[C@@H](C)N(C)C[C@H](C)O3)[C@H](C)[C@@H](O[C@@H]3O[C@H](C)C/C(=C\C#N)[C@H]3O)[C@@H](C)C[C@](C)(OC(=O)N3C[C@@H](C)O[C@@H](C)C3)C(=O)[C@H](C)[C@H](OC(=O)CC(C)C)[C@H]2C)[C@@H]1OC,MIC,resazurin,,,,H37Rv,0.424 µM
CCOC(=O)C1=C(C)NC(C)=C(C(=O)OCC)C1c1cn(-c2ccccc2)nc1-c1ccc(OC)cc1,inhibition,resazurin,,,6.25 µg/mL,H37Rv,52%
Oc1[nH]c2ccc(OC(F)(F)F)cc2c1N=NC(=S)Nc1ccc(Cl)cc1,EC90,broth dilution / resazurin,,,,H37Rv,1.521 µg/mL
CO[C@@H](C)[C@@](O)(C(=O)OCC1=CCN2CCC[C@@H]12)C(C)C,inhibition,BACTEC,,,12.8 µg/mL,H37Rv,13%
COc1ccc(Cc2cnc(N)nc2N)cc1OC,MIC,,,,,H37Rv,>123 µM
COc1c(N2C[C@@H]3CCCN[C@@H]3C2)c(F)cc2c(=O)c(C(=O)O)cn(C3CC3)c12,MIC50,,,,,5 isolates drug-resistant,0.062 µg/mL
CCOC(=O)c1cc(C(=O)c2ccc(C)cc2)n2c1ccc1c3ncccc3ccc12,EC90,reporter gene / fluorescence,,,,H37Rv,>200 µM
Cc1cccc(C)c1N/C(=N\Nc1c([N+](=O)[O-])cccc1[N+](=O)[O-])NC(=O)c1ccccc1C(=O)N/C(=N/Nc1c([N+](=O)[O-])cccc1[N+](=O)[O-])Nc1c(C)cccc1C,MIC bound,BACTEC,,,,H37Rv,>12.5 µg/mL
O=C(Cc1ccccc1)N[C@@H]1C(=O)N2C3=C(CSC12)CN(C(=O)c1ccccc1)OC3=O,MIC,,,,,H37Rv,>128 µM
CO[C@H]1/C=C/O[C@@]2(C)Oc3c(C)c(O)c4c(O)c(cc(O)c4c3C2=O)NC(=O)/C(C)=C\C=C\[C@H](C)[C@H](O)[C@@H](C)[C@@H](O)[C@@H](C)[C@H](OC(C)=O)[C@@H]1C,MIC,,,,,M. bovis Ravenel,0.03 µg/mL
COC(=O)c1c(C(=O)OC)c2ccc3c4ncccc4ccc3n2c1C(=O)c1ccccc1,EC50,reporter gene / fluorescence,,,,H37Rv,>20 µM
N#C/C(=C\c1cccc(Cl)c1Cl)n1nnc2ccccc21,MIC50,,,,,ATCC 27294,>100 µM
O=C(Cc1ccccc1)N[C@@H]1C(=O)N2C3=C(CSC12)CN(C(=O)c1ccc(C(F)(F)F)cc1)OC3=O,MIC,,,,,H37Rv,9.8 µM
NCCCN1c2ccccc2Sc2ccccc21,MIC,resazurin,,,,MDR-699,4 µg/mL
N#C/C(=C\c1ccc(F)cc1F)n1nnc2ccccc21,MIC90,,,,,ATCC 27294,>100 µM
COC(=O)C1=C(C)NC(C)=C(C(=O)OC)C1c1cn(-c2ccccc2)nc1-c1ccc(Cl)cc1,inhibition,resazurin,,,6.25 µg/mL,H37Rv,62%
Cc1c(-c2ccc(C(c3ccccc3)N3CCN(C)CC3)cc2)c([N+](=O)[O-])cc2c(=O)c(C(=O)O)cn(C3CC3)c12,MIC,,,,,H37Rv,0.68 µM
C=CC(O)C#CC#CC(O)/C=C\CCCCCCCCOC(C)=O,MIC90,resazurin,,,,H37Rv,25.3 µg/mL
Cc1c(N2CCCC(C(=O)N(C)C)C2)c([N+](=O)[O-])cc2c(=O)c(C(=O)O)cn(-c3ccc(F)cc3F)c12,MIC,,,,,H37Rv,11.52 µM
O=C(Cc1ccccc1)N[C@@H]1C(=O)N2C3=C(CSC12)CN(C(=O)c1ccc(F)cc1)OC3=O,MIC,,,,,H37Rv,15.3 µM
CSC[C@H](NC(=O)COc1cccc2cnccc12)C(=O)N[C@@H](Cc1ccccc1)[C@H](O)C(=O)N1CSC[C@H]1C(=O)NC(C)(C)C,inhibition,BACTEC,,,12.5 µg/mL,H37Rv,10%
O=C(O)C(=O)O.OC(CNCCc1ccccc1)CN1c2ccccc2Sc2ccccc21,MIC,resazurin,,,,XDR-926,32 µg/mL
CC(C)(C)O/N=C/c1cc(NC(=S)c2ccsc2)ccc1Cl,inhibition,BACTEC,,,12.5 µg/mL,H37Rv,97%
NC(=O)c1cnccn1,MIC,,,,,TB213,<25 µg/mL
NNC(=O)c1cccc(C(=O)NN)n1,MIC bound,BACTEC,,,,H37Rv,>12.5 µg/mL
O=c1[nH]c2ccccc2n(CN(c2ccccc2)c2ccccc2)c1=O,MIC,resazurin,,,,H37Rv,9.92 µg/mL
CCCCNC(=S)N=Nc1c(O)n(C)c2ccc(C)cc12,EC90,broth dilution / resazurin,,,,H37Rv,>100 µg/mL
COc1cc2c(cc1OC)CN(c1c([N+](=O)[O-])cc3c(=O)c(C(=O)O)cn(-c4ccc(F)cc4F)c3c1C)CC2,MIC,,,,,H37Rv,11.33 µM
CCCNc1nc2c(s1)c1c(O)c3c(O)c(C)c4c(c32)C(=O)[C@@](C)(O/C=C/[C@H](OC)[C@@H](C)[C@@H](OC(C)=O)[C@H](C)[C@H](O)[C@H](C)[C@@H](O)[C@@H](C)/C=C/C=C(/C)C(=O)N1)O4,MIC,resazurin,,,,H37Rv,0.05 µg/mL
Cc1c(N2CCn3cc(C(=O)O)nc3C2)c([N+](=O)[O-])cc2c(=O)c(C(=O)O)cn(-c3ccc(F)cc3F)c12,MIC,,,,,H37Rv,5.96 µM
C=CN1C(=O)N(C=C)C(C)(C(C)(C)C)C1=O,inhibition,BACTEC,,,12.5 µg/mL,H37Rv,14%
Cn1c(O)c(N=NC(=S)NC2CCCCC2)c2cc(OC(F)(F)F)ccc21,EC90,broth dilution / resazurin,,,,H37Rv,>100 µg/mL
CCOC(=O)c1cc(C(=O)c2ccccc2)n2c1ccc1c3ncccc3ccc12,MIC,reporter gene / fluorescence,,,,H37Rv,>200 µM
O=C1OC(c2ccccc2)=N/C1=C/c1ccc(F)cc1,MIC bound,BACTEC,,,,H37Rv,>12.5 µg/mL
CCOC(=O)c1cc(C(=O)c2ccc(Cl)cc2)n2c1ccc1c3ncccc3ccc12,EC90,reporter gene / fluorescence,,,,H37Rv,>100 µM
CCCCCCC/C=C\C(O)C#CC#CC(O)CC,MIC90,resazurin,,,,H37Rv,50.2 µg/mL
CCCCOCCN1CCN(CCCN2c3ccccc3Sc3ccc(C(F)(F)F)cc32)CC1.Cl.Cl,inhibition,BACTEC,,,12.5 µg/mL,H37Rv,99%
Oc1[nH]c2ccc(OC(F)(F)F)cc2c1N=NC(=S)Nc1ccc(F)cc1,EC90,broth dilution / resazurin,,,,H37Rv,1.546 µg/mL
O=C(/C=C/c1ccccc1)n1c(=O)c(=O)[nH]c2ccccc21,MIC,resazurin,,,,H37Rv,8.928 µg/mL
CC(C)CCCC(C)C1CCC2C3CCC4OC(=O)CCC4(C)C3CCC12C,MIC bound,BACTEC,,,,H37Rv,>12.5 µg/mL
CO[C@@H]1[C@H](O)[C@@H](C)O[C@@H](OC[C@H](C)[C@H]2OC(=O)[C@H](C)[C@@H](O[C@H]3C[C@H](C)N(C)C[C@H](C)O3)[C@H](C)[C@@H](O[C@@H]3O[C@H](C)C/C(=C\C#N)[C@H]3O)[C@@H](C)C[C@](C)(OC(=O)N3C[C@@H](C)O[C@@H](C)C3)C(=O)[C@H](C)[C@H](OC(=O)CC(C)C)[C@H]2C)[C@@H]1OC,MIC,resazurin,,,,H37Rv,0.452 µM
Cc1c2ccnc(-c3ccccc3)c2cc2c1[nH]c1ccccc12,MIC bound,resazurin,,,,H37Rv,<6.25 µg/mL
O=Cc1ccc(/C=N/NC(=O)c2ccncc2)cc1,MIC99,BACTEC,,INH resistant,,H37Rv delta-katG,>39.5 µM
O=C1OC2OC3OC(=O)C4C3CC2C14,inhibition,BACTEC,,,12.5 µg/mL,H37Rv,7%
CCCCCCC(C)c1ccc2c(c1)C(=O)c1nc3ccncc3c(=O)n1-2,MIC,,,,,H37Rv,0.015 µg/mL
C=CC(O)(C1CC1)C1CC1,inhibition,,,,6.25 µg/mL,H37Rv,16%
N#C/C(=C\c1cccc(I)c1)n1nnc2ccccc21,MIC50,,,,,ATCC 27294,58.2 µM
O=C1c2ccccc2C(=O)c2c1nc1sccn21,MIC,BACTEC,,,,H37Rv,12.5 µg/mL
COC(=O)c1c(C(=O)OC)c2ccc3c4ncccc4ccc3n2c1C(=O)c1ccc(Br)cc1,EC90,reporter gene / fluorescence,,,,H37Rv,>20 µM

Again, the opening 6 rows:

CN(C)c1ccc(/C=C/C(=O)n2c(=O)c(=O)[nH]c3ccccc32)cc1 ; measure: MIC ; method: resazurin ; strain or isolate: H37Rv ; result: 16.4 µg/mL
COC(CC(C)(O)C#CCC(C)(O)/C=C/C1=C(C)CCCC1(C)C)OC ; measure: inhibition ; dose: 6.25 µg/mL ; strain or isolate: H37Rv ; result: 11%
CCOC(=O)C1=C(C)NC(C)=C(C(=O)OCC)C1c1cn(-c2ccccc2)nc1-c1ccc(Cl)cc1 ; measure: inhibition ; method: resazurin ; dose: 6.25 µg/mL ; strain or isolate: H37Rv ; result: 70%
CO[C@H]1/C=C/O[C@@]2(C)Oc3c(C)c(O)c4c(O)c(c(N(NC5CC5)NC5CC5)c(O)c4c3C2=O)NC(=O)/C(C)=C\C=C\[C@H](C)[C@H](O)[C@@H](C)[C@@H](O)[C@@H](C)[C@H](OC(C)=O)[C@@H]1C ; measure: MIC ; strain or isolate: M. bovis Ravenel ; result: 0.001 µg/mL
Oc1cc(Cl)ccc1Oc1ccc(Cl)cc1Cl ; measure: MIC ; strain or isolate: M305 ; result: 20 µM
S=C(S)Nc1ccc(Cl)cc1 ; measure: MIC ; strain or isolate: PAS-R ; result: 12.5 µg/mL

MIC50, MIC90 and the like: level of inhibition, or share of isolates inhibited. An empty or dashed field is not shown. Percent inhibition refers to the dose given; in toxicity tests it is the harm to the cells. Conditions beyond the fields shown may differ between rows. ECn is the concentration giving n% inhibition of infection, replication or growth.